In patent US12577196B2 (priority 2019, dated 2026):

Key:
[1] = tested on: Saccharomyces cerevisiae ATCC-2601 Fluconazole resistant (20 G); assay: microbe, parasite or virus in culture; details: ATCC2601
[2] = tested on: Candida albicans NTCT-885-653 Voriconazole resistant (20 G); assay: microbe, parasite or virus in culture

Row | Compound | MIC [1] | MIC [2]
1 | Cc1ccc(C(C)C)cc1OC(=O)C[N+](C)(C)CCCCCCCCCC[N+](C)(C)CC(=O)Oc1cc(C(C)C)ccc1C [Formula IV, N1,N10-bis(2-(5-isopropyl-2-methylphenoxy)−2-oxoethyl)-N1,N1,N10,N10-tetramethyldecane-1,10-diaminium dichloride] | 0.98 µg/mL | –
2 | Cc1ccc(C(C)C)c(OC(=O)C[N+](C)(C)CCCCCCCCCC[N+](C)(C)CC(=O)Oc2cc(C)ccc2C(C)C)c1 [Formula V, N1,N10-bis(2-(2-isopropyl-5-methylphenoxy)−2-oxoethyl)-N1,N1,N10,N10-tetramethyldecane-1,10-diaminium dichloride] | 0.98 µg/mL | 0.98 µg/mL
